This note sets out measurements from US20260256822A1, “ENTRY-MODULATING AGENTS AND USES THEREFOR” (priority 2022, published 2026).

The target of this test is PvCyRPA (Plasmodium vivax, UniProt A5K678, A187P/D259E/E126K/E159D/E86Q/G127E/G69A/H95N/K131E/K185E/K93E/Q142K/R122K/T90K). Put plainly: SPR binding of drugs to recombinant PvCyRPA. The settings on record: Table 12, PvCyRPA.

pKd: −log10 of the molar value.

Consider `CC(O)C(=O)O.CCOc1ccc2nc3cc(N)ccc3c(N)c2c1` (racemic) [RIVANOL, 6,9-Diamino-2-ethoxyacridine-DL-lactate monohydrate], for which the pKd is 8.16.
Then `CCC(C)[C@H]1O[C@]2(CC[C@@H]1C)C[C@@H]1C[C@@H](C/C=C(\C)[C@@H](O[C@H]3C[C@H](OC)[C@@H](O[C@H]4C[C@@H](OC)[C@H](O)[C@@H](C)O4)[C@H](C)O3)[C@@H](C)/C=C/C=C3\CO[C@@H]4[C@H](O)C(C)=C[C@@H](C(=O)O1)[C@]34O)O2` (some centres unmarked) [Ivermectin], with 6.79.
